{
  "source": "paper PMC12079475",
  "about": "“Identification, validation, and characterization of approved and investigational drugs interfering with the SARS‐CoV‐2 endoribonuclease Nsp15” (Protein Science : A Publication of the Protein Society, 2025)",
  "target": "Nsp15 (Severe acute respiratory syndrome coronavirus 2, UniProt P0DTD1)",
  "conditions": "5 μM Nsp15, 50 μM ligand; apo protein Tm 60.6 (0.1)°C",
  "data": [
    {"compound": "Oc1ccc2ccccc2c1SSc1c(O)ccc2ccccc12", "note": "[IPA‐3]", "values": [
      {"measurement": "ΔT m°C nDSF", "result": 2, "unit": "°C"}
    ]},
    {"compound": "CC1(C)C(=O)N=C2C1=C(O)C(=O)c1ccccc12", "values": [
      {"measurement": "ΔT m°C nDSF", "result": 3.7, "unit": "°C"}
    ]},
    {"compound": "Cc1[nH]c2ccc(F)cc2c1-c1nc2c3cccnc3c3ncccc3c2[nH]1", "note": "[APTO‐253]", "values": [
      {"measurement": "ΔT m°C nDSF", "result": 0.2, "unit": "°C"}
    ]},
    {"compound": "O=C1C(Cl)=C(NCCN2CCOCC2)C(=O)c2ncccc21", "note": "[NSC‐663284]", "values": [
      {"measurement": "ΔT m°C nDSF", "result": 1.8, "unit": "°C"}
    ]}
  ]
}
